From article PMC6943423 (Molecules, 2019)
Square brackets hold non-standard residues; d marks the D form. Peptide text beside a SMILES is read from it. d1Nal = N[C@H](Cc1cccc2ccccc12)C(=O)O; dNle = CCCC[C@@H](N)C(=O)O

Assay: Lipid-peptide interaction by synchrotron SAXS
Details: SAXS fit parameter; for Zpeptide: peptide position in bilayer; for Bilayer thickness: liposomes alone 38.5±0.5
From the text: For preparation of unilamellar lipid vesicles, synthetic DMPC (1,2-dimyristoyl-sn-glycero-3-phosphocholine), DMPG (1,2-dimyristoyl-sn-glycero-3-phospho-(10-rac-glycerol)), and DMPE-PEG (1,2-dimyristoyl-sn-glycero-3-phosphoethanolamine-N-[methoxy(polyethylene glycol)-2000]) (from Avanti Polar Lipids) were used in the molar ratio 9:7.5:2.5. The lipids were first dissolved in a 1:3 methanol:chloroform solution, and then the organic solvents were removed completely under vacuum using a Heidolph rotary evaporator with a Vacuubrand vacuum pump. The resulting lipid film was hydrated with 50 mM Tris buffer, pH 7.4, for at least one hour at 35 °C. After sonication for 10 min, the lipid dispersions were extruded through a 100 nm pore diameter polycarbonate filter (21 times) using an Avanti mini-extruder fitted with two 1 mL airtight syringes. Immediately before the SAXS experiment, a peptide solution with the adequate concentration for the target lipid:peptide ratio was mixed 1:1 with the lipid solution (1:1) using a micropipette.
SAXS experiments of the peptide-lipid mixes were performed at the automated BM29 bioSAXS beamline at the European Synchrotron Radiation Facility (ESRF) in Grenoble, France. The data was obtained using an energy of 12.5 keV and a detector distance of 2.87 m, covering a q range of about 0.0047 Å^−1 to 0.5 Å^−1. The data set was calibrated to an absolute intensity scale using water as a primary standard. 40 µL samples were run through a capillary using the flow mode of the automated sample changer. SAXS data was collected in ten successive frames of 0.5 s each to monitor radiation damage and the data reduction was done using the standard tool at BM29 [37].
The SAXS results of the lipid-peptide mixes were analysed using the theoretical model described in detail in [29]. In short, the model provides a detailed description of the membrane by dividing into probability functions for each component (lipid sub-units/peptide) across the bilayer.

[1] = fraction peptide 1:10 (peptide 5: joint SAXS/SANS fit)

Row | Structure (SMILES) | Zpeptide (fraction peptide 1:5) [Å] | Zpeptide [1] [Å] | Zpeptide (fraction peptide 1:20) [Å] | Bilayer thickness (fraction peptide 1:5) [Å] | Bilayer thickness [1] [Å] | Bilayer thickness (fraction peptide 1:20) [Å]
1 | CCCC[C@@H](NC(=O)[C@@H](CCCCN)NC(=O)[C@@H](Cc1cccc2ccccc12)NC(=O)[C@@H](C)NC(=O)[C@@H](Cc1ccccc1)NC(=O)[C@@H](Cc1cccc2ccccc12)NC(=O)[C@@H](CCCCN)NC(=O)[C@H](N)CCCCN)C(N)=O [Compound 5, kk(1-nal)fa(1-nal)k(nle)-NH2] (H-[dK][dK][d1Nal][dF][dA][d1Nal][dK][dNle]-NH2) | 16 | 17 | 17 | – | – | –
2 | CCCC[C@@H](NC(=O)[C@@H](CCCCN)NC(=O)[C@@H](Cc1cccc2ccccc12)NC(=O)[C@@H](CCCCN)NC(=O)[C@@H](Cc1ccccc1)NC(=O)[C@@H](Cc1cccc2ccccc12)NC(=O)[C@@H](CCCCN)NC(=O)[C@H](N)CCCCN)C(N)=O [Compound D2D, kk(1-nal)fk(1-nal)k(nle)-NH2] (H-[dK][dK][d1Nal][dF][dK][d1Nal][dK][dNle]-NH2) | 14 | 12 | 11 | 38.5±0.5 | 38.5±0.5 | 38.5±0.5
